Pooled drug test results. Numbers come from NIAID ChemDB, via PubChem.

Shared fields: enzyme or target tests

Lines come from different laboratories, so protocols vary. Blank or dashed fields: not listed here. ICn: concentration for n% inhibition. Percent inhibition refers to the dose given; in toxicity tests it is the harm to the cells.

| SMILES | measure | dose | target | agent | method | strain or isolate | result |
|---|---|---|---|---|---|---|---|
| O=C(CCN1C(=O)/C(=C/c2ccc(Cl)cc2)SC1=S)NNC(=O)c1ccncc1 | IC50 | - | Pantothenate synthetase | Mycobacterium tuberculosis | absorbance | - | 3.5 µM |
| O=Cc1cc([N+](=O)[O-])cc([N+](=O)[O-])c1O | inhibition | 25 µM | UDP-galactopyranose mutase | Mycobacterium tuberculosis | - | - | 1% |
| CO[C@H]1O[C@@H](n2ccc(=O)[nH]c2=O)C[C@@H]1N=[N+]=[N-] | Ki | - | Thymidine monophosphate kinase | Mycobacterium tuberculosis | - | - | 811 µM |
| O=Cc1sc(-c2cccnc2)nc1OCc1cnnn1-c1cc2ccc(O)cc2oc1=O | IC50 | - | DNA gyrase | Mycobacterium tuberculosis | gel / absorbance | - | 16.1 µM |
| [N-]=[N+]=N[C@H]1C[C@H](n2cc(Cl)c(=O)[nH]c2=O)O[C@@H]1CO | IC50 | - | Thymidine monophosphate kinase | Mycobacterium tuberculosis | - | - | 16 µM |
| O=C(CON=Cc1cc([N+](=O)[O-])cc([N+](=O)[O-])c1O)NC[C@H]1O[C@@H](n2ccc(=O)[nH]c2=O)[C@H](O)[C@@H]1O | IC50 | - | UDP-galactopyranose mutase | Mycobacterium tuberculosis | - | - | >100 µM |
| O=C(O)Cc1ccc(O)cc1 | Ki | - | Rv3273 | Mycobacterium tuberculosis | - | Rv3273 | 11.4 µM |
| O=c1[nH]c(=O)n([C@H]2C[C@H](O)[C@@H](CO)O2)cc1I | IC50 | - | Thymidine monophosphate kinase | Mycobacterium tuberculosis | - | - | 33 µM |
| NC1CCN(c2nc3c(cc2F)c(=O)c(C(=O)O)cn3-c2ccc(F)cc2F)C1 | IC50 | - | DNA gyrase | Mycobacterium tuberculosis | gel | H37Rv | 37 µg/mL |
| COc1cc(C2NC(=S)N=C3C2C(=O)N=C2SC([N+](=O)[O-])=CN23)ccc1O | inhibition | 100 µM | CysK1 | Mycobacterium tuberculosis | absorbance | - | 10.8% |
| O=c1[nH]c(=O)n([C@H]2C[C@H](O)[C@@H](CO)O2)cc1Cl | IC50 | - | Thymidine monophosphate kinase | Mycobacterium tuberculosis | - | - | 10 µM |
| CCOc1ccc2cc(-n3nncc3COc3nc(-c4cccnc4)sc3C(=O)O)c(=O)oc2c1 | IC50 | - | DNA gyrase | Mycobacterium tuberculosis | gel / absorbance | - | 10.6 µM |
| O=C(CCN1C(=O)/C(=C/c2ccc(Cl)cc2)SC1=S)NNC(=O)c1cccc2ccccc12 | IC50 | - | Pantothenate synthetase | Mycobacterium tuberculosis | absorbance | - | 1.17 µM |
| O=c1[nH]c(=O)n([C@H]2C[C@H](O)[C@@H](CO)O2)cc1CO | Ki | - | Thymidine monophosphate kinase | Mycobacterium tuberculosis | - | - | 820 µM |
| O=Cc1sc(-c2ccccn2)nc1OCc1cnnn1-c1cc2ccc(O)cc2oc1=O | IC50 | - | DNA gyrase | Mycobacterium tuberculosis | gel / absorbance | - | >25 µM |
| Nc1nc(N)c2nc(CN3c4ccccc4C=Cc4ccccc43)cnc2n1 | IC50 | - | DHFR | Mycobacterium avium | - | - | 0.012 µM |
| Cc1ccc(C2NC(=O)N=C3C2C(=O)N=C2SC([N+](=O)[O-])=CN23)cc1 | inhibition | 100 µM | CysK1 | Mycobacterium tuberculosis | absorbance | - | 42.3% |
| O=C(CCN1C(=O)/C(=C/c2ccc3c(c2)OCO3)SC1=S)NNC(=O)c1cccc2ccccc12 | IC50 | - | Pantothenate synthetase | Mycobacterium tuberculosis | absorbance | - | 1.05 µM |
| Cc1cn([C@@H]2O[C@H](COP(=O)([O-])[O-])[C@@H](O)[C@H]2Cl)c(=O)[nH]c1=O | Ki | - | Thymidine monophosphate kinase | Mycobacterium tuberculosis | - | - | 43.05 µM |
| COC1=C(OC)C(=O)C(CC/C=C(\C)CCC=C(C)C)=CC1=O | inhibition | 40 µM | NADH dehydrogenase | Mycobacterium tuberculosis | - | - | 85% |
| Nc1nc(N)c2cc(NC3c4ccccc4CCc4ccccc43)ccc2n1 | IC50 | - | DHFR | Mycobacterium avium | - | - | 2 µM |
| CN(Cc1ccccc1)C(=O)CN(C)S(=O)(=O)c1cc(Br)cnc1N | inhibition | 100 µM | Lipoamide dehydrogenase | Mycobacterium tuberculosis | absorbance | H37Rv | 70% |
| C[N+](C)(CCCN1c2ccccc2Sc2ccc(Cl)cc21)Cc1ccccc1 | IC50 | - | NADH dehydrogenase | Mycobacterium tuberculosis | - | - | 11 µM |
| O=C(CCN1C(=O)/C(=C/c2ccc3c(c2)OCO3)SC1=S)NNC(=O)c1ccncc1 | IC50 | - | Pantothenate synthetase | Mycobacterium tuberculosis | absorbance | - | 1.21 µM |
| NNC(=O)c1ccc(S(=O)(=O)NC[C@H]2O[C@@H](n3ccc(=O)[nH]c3=O)[C@H](O)[C@@H]2O)cc1 | IC50 | - | UDP-galactopyranose mutase | Mycobacterium tuberculosis | - | - | >100 µM |
| NC(=O)C(=O)NCc1cccnc1 | inhibition | 100 µM | Lipoamide dehydrogenase | Mycobacterium tuberculosis | absorbance | H37Rv | 100% |
| NCCCOc1c(Br)cc(C/C(=N\O)C(=O)NCCc2cnc(N)[nH]2)cc1Br | IC50 | - | MYCOTHIOL-S-CONJUGATE AMIDASE | Mycobacterium tuberculosis | - | - | 30 µM |
| O=c1[nH]c(=O)n([C@H]2C[C@H](O)[C@@H](COP(=O)([O-])[O-])O2)cc1Cc1ccccc1 | Ki | - | Thymidine monophosphate kinase | Mycobacterium tuberculosis | - | - | 10 µM |
| N[C@@H]1CN(c2c(F)cc3c(=O)c(C(=O)O)cn([C@@H]4C[C@@H]4F)c3c2Cl)CC12CC2 | IC50 | - | DNA gyrase | Mycobacterium tuberculosis | gel | H37Rv | 2.5 µg/mL |
| COC1=C(Br)CC2(OC=C1Br)ON=C(C(=O)NCCCOc1c(Br)cc(C(O)CN)cc1Br)[C@@H]2O | IC50 | - | MYCOTHIOL-S-CONJUGATE AMIDASE | Mycobacterium tuberculosis | - | - | 30 µM |
| O=c1ccn([C@H]2C[C@H](O)[C@@H](CO)O2)c(=O)[nH]1 | Ki | - | Thymidine monophosphate kinase | Mycobacterium tuberculosis | - | - | 1020 µM |
| COC(=O)c1sc(-c2ccccc2)nc1OCc1cnnn1-c1cc2ccc(O)cc2oc1=O | IC50 | - | DNA gyrase | Mycobacterium tuberculosis | gel / absorbance | - | 14.9 µM |
| Cc1cn([C@@H]2O[C@H](CO)[C@@H](O)[C@H]2O)c(=O)[nH]c1=O | Ki | - | Thymidine monophosphate kinase | Mycobacterium tuberculosis | - | - | 716 µM |
| CCOc1ccc2cc(-n3nncc3COc3nc(-c4ccncc4)sc3C=O)c(=O)oc2c1 | IC50 | - | DNA gyrase | Mycobacterium tuberculosis | gel / absorbance | - | 9.1 µM |
| O=C1N=C2SC([N+](=O)[O-])=CN2C2=NC(=S)NC(c3ccc(Cl)cc3)C12 | inhibition | 100 µM | CysK1 | Mycobacterium tuberculosis | absorbance | - | 0% |
| O=C(CCN1C(=O)/C(=C/c2ccc([N+](=O)[O-])cc2)SC1=S)NNC(=O)c1ccccc1 | IC50 | - | Pantothenate synthetase | Mycobacterium tuberculosis | absorbance | - | 0.37 µM |
| CCc1cn([C@H]2C[C@H](O)[C@@H](CO)O2)c(=O)[nH]c1=O | IC50 | - | Thymidine monophosphate kinase | Mycobacterium tuberculosis | - | - | 1140 µM |
| CO[C@@H]1[C@@H](OCc2ccccc2)[C@@H](OCc2ccccc2)[C@H](O[C@@H]2[C@H](OC(C)=O)[C@@H](COC(C)=O)OC(O)[C@@H]2NC(C)=O)O[C@H]1C | IC50 | - | Galactosyltransferase | Mycobacterium tuberculosis | - | - | 370 µg/mL |
| CC(C)(C)NC(=O)C(=O)NCc1cccnc1 | inhibition | 100 µM | Lipoamide dehydrogenase | Mycobacterium tuberculosis | absorbance | H37Rv | 60% |
| Nc1nc(N)c2cc(CN3c4ccccc4C=Cc4ccccc43)ccc2n1 | IC50 | - | DHFR | Mycobacterium avium | - | - | 0.053 µM |
| N[C@@H]1CN(c2c(F)cc3c(=O)c(C(=O)O)cn([C@@H]4C[C@@H]4F)c3c2Cl)CC12CC2 | IC50 | - | Gyrase | Mycobacterium tuberculosis | - | - | 1.67 µg/mL |
| CC1CCc2cc(F)cc3c(=O)c(C(=O)O)cn1c23 | IC50 | - | DNA gyrase | Mycobacterium tuberculosis | gel | H37Rv | 500 µg/mL |
| CCOc1ccc2cc(-n3nncc3COc3nc(-c4ccccc4)sc3C(=O)O)c(=O)oc2c1 | IC50 | - | DNA gyrase | Mycobacterium tuberculosis | gel / absorbance | - | 11.31 µM |
| COc1cc(C2NC(=O)N=C3C2C(=O)N=C2SC([N+](=O)[O-])=CN23)ccc1O | inhibition | 100 µM | CysK1 | Mycobacterium tuberculosis | absorbance | - | 9.5% |
| NNC(=O)c1ccncc1 | IC50 | - | Pantothenate synthetase | Mycobacterium tuberculosis | absorbance | - | >25 µM |
| CO[C@H]1O[C@@H](n2ccc(=O)[nH]c2=O)C[C@@H]1N=[N+]=[N-] | IC50 | - | Thymidine monophosphate kinase | Mycobacterium tuberculosis | - | - | 810 µM |
| Nc1ncc(Br)cc1S(=O)(=O)NCCC(=O)Nc1cccc(Cl)c1 | inhibition | 100 µM | Lipoamide dehydrogenase | Mycobacterium tuberculosis | absorbance | H37Rv | 15% |
| CC(C)=CCC/C(C)=C/CC/C(C)=C/CC/C(C)=C/CCC1=CC(=O)c2ccccc2C1=O | inhibition | 40 µM | NADH dehydrogenase | Mycobacterium tuberculosis | - | - | 90% |
| O=c1[nH]c(=O)n([C@H]2C[C@H](O)[C@@H](CO)O2)cc1CO | IC50 | - | Thymidine monophosphate kinase | Mycobacterium tuberculosis | - | - | 820 µM |
| COC(=O)c1sc(-c2cccnc2)nc1OCc1cnnn1-c1cc2ccc(N)cc2oc1=O | IC50 | - | DNA gyrase | Mycobacterium tuberculosis | gel / absorbance | - | 8.5 µM |
| O=C(CCN1C(=O)/C(=C/c2ccc(OCc3ccccc3)cc2)SC1=S)NNC(=O)c1cccc2ccccc12 | IC50 | - | Pantothenate synthetase | Mycobacterium tuberculosis | absorbance | - | 1.7 µM |
| COC1=C(Br)CC2(OC=C1Br)ON=C(C(=O)NCCCOc1c(Br)cc(CCN)cc1Br)[C@@H]2O | IC50 | - | MYCOTHIOL-S-CONJUGATE AMIDASE | Mycobacterium tuberculosis | - | - | 30 µM |
| O=C1N=C2SC([N+](=O)[O-])=CN2C2=NC(=S)NC(c3ccc([N+](=O)[O-])cc3)C12 | inhibition | 100 µM | CysK1 | Mycobacterium tuberculosis | absorbance | - | 29.4% |
| [N-]=[N+]=N[C@H]1C[C@H](n2cc(Br)c(=O)[nH]c2=O)O[C@@H]1CO | IC50 | - | Thymidine monophosphate kinase | Mycobacterium tuberculosis | - | - | 10.5 µM |
| O=C1N=C2SC([N+](=O)[O-])=CN2C2=NC(=S)NC(c3cccc(Br)c3)C12 | inhibition | 100 µM | CysK1 | Mycobacterium tuberculosis | absorbance | - | 60.1% |
| [N-]=[N+]=N[C@H]1C[C@H](n2cc(Cl)c(=O)[nH]c2=O)O[C@@H]1CO | IC50 | - | Thymidine monophosphate kinase | Mycobacterium tuberculosis | - | - | 16 µM |
| CCn1cc(C(=O)O)c(=O)c2cc3c(cc21)OCO3 | IC50 | - | DNA gyrase | Mycobacterium tuberculosis | gel | H37Rv | 300 µg/mL |

Repeating the first 8 entries:

SMILES | measure | dose | target | agent | method | strain or isolate | result
O=C(CCN1C(=O)/C(=C/c2ccc(Cl)cc2)SC1=S)NNC(=O)c1ccncc1 | IC50 | - | Pantothenate synthetase | Mycobacterium tuberculosis | absorbance | - | 3.5 µM
O=Cc1cc([N+](=O)[O-])cc([N+](=O)[O-])c1O | inhibition | 25 µM | UDP-galactopyranose mutase | Mycobacterium tuberculosis | - | - | 1%
CO[C@H]1O[C@@H](n2ccc(=O)[nH]c2=O)C[C@@H]1N=[N+]=[N-] | Ki | - | Thymidine monophosphate kinase | Mycobacterium tuberculosis | - | - | 811 µM
O=Cc1sc(-c2cccnc2)nc1OCc1cnnn1-c1cc2ccc(O)cc2oc1=O | IC50 | - | DNA gyrase | Mycobacterium tuberculosis | gel / absorbance | - | 16.1 µM
[N-]=[N+]=N[C@H]1C[C@H](n2cc(Cl)c(=O)[nH]c2=O)O[C@@H]1CO | IC50 | - | Thymidine monophosphate kinase | Mycobacterium tuberculosis | - | - | 16 µM
O=C(CON=Cc1cc([N+](=O)[O-])cc([N+](=O)[O-])c1O)NC[C@H]1O[C@@H](n2ccc(=O)[nH]c2=O)[C@H](O)[C@@H]1O | IC50 | - | UDP-galactopyranose mutase | Mycobacterium tuberculosis | - | - | >100 µM
O=C(O)Cc1ccc(O)cc1 | Ki | - | Rv3273 | Mycobacterium tuberculosis | - | Rv3273 | 11.4 µM
O=c1[nH]c(=O)n([C@H]2C[C@H](O)[C@@H](CO)O2)cc1I | IC50 | - | Thymidine monophosphate kinase | Mycobacterium tuberculosis | - | - | 33 µM